B1: TCN-553 (5261_C18) (antibody, V domains shown)
VH: QVQVVQSGTEVKKPGSSVKVSCQTSGGRFMSYAITWVRQAPGQGLEWMGGIVPVFGTANYAQKFQGRVTITTDDSTRTAYMELSSLRSEDTAVYYCGFRYGSGYGFDSWGQGTLVTVSS
VL: EIVLTQSPGTLSLSPGERATLSCRASQSVSSSYLAWYQKKPGQAPRLLIYGASTRATGIPDRFTGSGSGTDFTLSISRLEPEDFAVYYCQHFGTSVFTFGGGTKVEIK
B2: TCN-540 (5060_F05) (antibody, V domains shown)
VH: QVQLVQSGGGVVQPGRSLRLSCAASGFTFSSYAMHWVRQAPGKGLEWVAIISYDGNDQYYTDSVKGRFTISRDSSKVYLQMHRLRPEDTAVYYCAKEFETSGYFHGSFDYWGQGILVTVSS
VL: QSALTQPASVSGSPGQSITISCTGTSSDVGGYNYVSWYQQHPGKAPKLLIYEVTNWPSGVSNRFSGSKSGNTASLTISGLQAEDEADYYCSSYAGSSTWVFGGGTRVTVL
B3: TCN-551 (5243_D01) (antibody, V domains shown)
VH: EVQLVQSGSEVKKPGESLKISCKGSGYSFSNYWIGWVRHMPGKGLEWMGIIYPGDSDTRYSPSFQGQVTMSADKSSSTVYLQWSSLKASDTAIYYCARRGGHSFGYGSGGDTHSEFDSWGQGTLVTVSS
VL: QSVLTQSPSVSAAPGQKVTISCSGSDSNIGDYFVCWYQHLPGKPPQLLIYENNKRPSGIPDRFSGSKSGTSATLGITGIQTGDEADYYCATWDGSLSAWVFGGGTKLTVL
B4: TCN-555 (5246_L16) (antibody, V domains shown)
VH: QVQLVQSGAEVKRPGSSVKVSCTASGGIFRKNAISWVRQAPGQGLEWMGGIIAVFNTANYAQKFQNRVKITADESGNTAYMELSSLTSDDTAVYYCASHPKYFYGSGSYPDFWGQGTLVTVSS
VL: QSALTQPRSVSGSPGQSITISCTGGSSDIGASNSVSWYQQHPGKAPKLVIFDVTERPSGVPHRFSGSKSGNTASLTVSGLQPDDEADYFCCAYGGKYLVVFGGGTKVTVL
B5: TCN-552 (5249_I23) (antibody, V domains shown)
VH: QVQVVQSGAEVKKPGSSVRVSCQASGGTFMNYAIIWVRRAPGQGLEWMGGIIPVFPTPNYAQMFQGRVTISTDESRSTSFLELTNLRYEDTAVYYCARRIYHGGNSGFDFWGQGTLVTVSS
VL: EIVLTQSPATLSLSPGERATLSCRASQSVGNYLAWYQQKPGQAPRLLIYDSSNRAPGIPARFSGSGSGTDFTLTISSLAPEDFAVYYCQQRSKWPPMYSFGHGTKLEIK
B6: TCN-553 (5261_C18) (antibody, V domains shown)
VH: B1 VH
VL: B1 VL
B7: TCN-540 (5060_F05) (antibody, V domains shown)
VH: B2 VH
VL: B2 VL
B8: TCN-546 (5089_L08) (antibody, V domains shown)
VH: QVQLQQWGAGLLKPSETLSLTCGVYGGSLSDYYWSWIRQPPGKGLEWIGEINHSGGTNYNPSLKRRVTISVDTSKKQFSLKMNSVTAADTAVYYCARGTDPDTEVYCRAGNCAAFDFWGQGTLVTVSS
VL: EIVLTQSPGTLSLSPGERATLSCRASHFVIGRAVAWYQQKPGQAPRLLIYGASSRATGIPDRFSGSGSGTDFTLTISRLETEDFAVFYCQHYGSSPRYAFGQGTKLEIK
B9: TCN-557 (5081_A04) (antibody, V domains shown)
VH: QVQLVQSGAEVKKPGASVKVSCKASGHTFTGYYIHWVRQAPGQGLEWMGWINPDSGATSSAQNFQGRVTMTGDTSSSTAYMELSRLSFDDTAVYYCARVLFTSPFDFWGEGTLVTVSS
VL: QAVVTQEPSLAVSPGGTVTLTCGSSTGAVTRGHYPYWFQQKPGQAPRALIYDSAGNRHSWTPARFSGSLLGGKAALTLSGAQPEDEAEYYCLLSYSGVWVFGGGTKLTVL
B10: TCN-536 (5095_N01) (antibody, V domains shown)
VH: QVQLQQWGAGLLKPSETLSLTCAVYGGSFSVSGYYWSWIRQPPGRGLEWIGEISHGGSTNYNPSLKSRVTISVDTTKNQFSLRLSSVTAADTAVYYCARGTDPDTEVYCRVGNCAAFDYWGQGSLVTVSS
VL: EIILAQSPGTLSLSPGERATLSCRASQFVSTRSLAWYQQRPGQAPRLLIYGASSRATGIPDRFSGSGSGTDFTLTISRLEPEDFAVYYCQHYGYSPRYAFGQGSKVEIK
B11: TCN-543 (5081_G23) (antibody, V domains shown)
VH: QVHLVQSGAEVRKPGDSVKVSCKTSGYTFSTYPVAWVRQVPGQGLEWMGWISTYNGNTNFAQNFQGRVTLTTDTTTNTAYMEVRSLKFDDTAVYYCARVEGSYRDFWNNQNRFDPWGQGTLVTVSS
VL: SYVLTQPPSVSVAPGQTARISCGGSNIGGKSVHWYQQKPGQAPVLVVYDDSGRPSGIPERFSGSNSGDTATLTISRVEAGDEADYFCQVWDNFGGVFGTGTKVTVL
B12: TCN-545 (5082_I15) (antibody, V domains shown)
VH: QVQLQQWGAGLLKPSETLSLSCAVFGGSFSDYYWTWIRQPPGKGLEWIGEIKHSGRTNYNPSLESRVTISVDTSKNQFSLKLSSVTAADTAIYYCARGTDPDTEGYCRSGSCSAFDFWGQGTLVTVSS
VL: EIVLTQSPGTLSLSPGERATLSCRASHFVNYRSLAWYQQTPGQVPRLLIYGASTRATGIPDRFSGSGSGTDFTLTISRLEPEDFAVYFCQQYGGSPRYTFGQGTRLEIK
B13: TCN-555 (5246_L16) (antibody, V domains shown)
VH: B4 VH
VL: B4 VL
B14: TCN-550 (5096_F06) (antibody, V domains shown)
VH: QVQLQESGPGLVKPSETLSLTCTVSGASINSHYWSWIRQPPGKGLEWIGYVYYSGSTTYNPSLKSRVTLSVDTSKNQFSLNLSSVTAADTAFYYCARHPYDVLTGSGDWFDPWGQGTLVTVSS
VL: SYVLTQAPSVSVAPGQTARITCGGNAIGSKKVHWYQHKAGQAPVLVVYDDTDRPSGIPERFSGSNSWSTATLTINRVEAGDEADYYCQVWDFTIDHVVFGGGTKLTVL
B15: TCN-552 (5249_I23) (antibody, V domains shown)
VH: B5 VH
VL: B5 VL

biological target: recombinant soluble homotrimeric HA of A/common magpie/Hong Kong/5052/07 (H5N1) (Influenza A virus A/common magpie/Hong …); assay: not given

**Q.** How did the “Trimeric HA Binding: RLU” value turn out when B1 was run?
**A.** Its value is 26000 RLU.

**Q.** With B2 as the binder, how does the “Trimeric HA Binding: RLU” value read?
**A.** Its value is 113 RLU.

**Q.** With B3 as the binder, how does the “Trimeric HA Binding: RLU” value read?
**A.** Its value is 45700 RLU.

**Q.** How did the “Trimeric HA Binding: RLU” value turn out when B4 was run?
**A.** The value was 16100 RLU.

**Q.** Which “Trimeric HA Binding: RLU” value does the source give for B5 here?
**A.** Its value is 42200 RLU.

biological target: recombinant soluble homotrimeric HA of A/Common magpie/Hong Kong/5052/07 - H5N1 (Influenza A virus A/common magpie/Hong …); assay: micro-array; captured IgG, V5-tagged trimeric HA

**Q.** B6 was tested. Which “Trimeric HA Binding: RLU” value did it give?
**A.** Its value is 39200 RLU.

**Q.** B7 was tested. Which “Trimeric HA Binding: RLU” value did it give?
**A.** The value was 1800 RLU.

**Q.** How did the “Trimeric HA Binding: RLU” value turn out when B8 was run?
**A.** The value was 1920 RLU.

**Q.** With B9 as the binder, how does the “Trimeric HA Binding: RLU” value read?
**A.** Its value is 54900 RLU.

**Q.** B10 was tested. Which “Trimeric HA Binding: RLU” value did it give?
**A.** The value was 27 RLU.

**Q.** Which “Trimeric HA Binding: RLU” value does the source give for B11 here?
**A.** Its value is 1070 RLU.

**Q.** B12 was tested. Which “Trimeric HA Binding: RLU” value did it give?
**A.** The value was 1390 RLU.

**Q.** B13 was tested. Which “Trimeric HA Binding: RLU” value did it give?
**A.** The value was 33600 RLU.

**Q.** B14 was tested. Which “Trimeric HA Binding: RLU” value did it give?
**A.** Its value is 993 RLU.

**Q.** B15 was tested. Which “Trimeric HA Binding: RLU” value did it give?
**A.** The value was 34600 RLU.

Reference: patent US20120207760A1, “Compositions and Methods for the Therapy and Diagnosis of Influenza” (THERACLONE SCIENCES, published 2012)
